33 compounds from US10195189B2, “2-phenethenyltetrahydro isoquinolines useful as anti-HIV compounds” (priority 2014, dated 2019) can be followed below.

SMILES strings stand for the structures.

This data set concerns HIV-1 NL4-3 viral clone expressing Renilla luciferase. The data set is classed as cell-based. The settings on record: ratio of CC50 over EC50. A digest of the protocol: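 MT-2 cells (2×10^4/well) were infected at MOI 0.027 with Renilla-luciferase HIV-1 NL4-3 alongside 3-fold compound dilutions for 96 h. Spread was read by EnduRen luminescence and supernatant infectivity on TZM-bl (48 h, MUG fluorescence). Mock-infected cytotoxicity used AlamarBlue. % inhibition versus solvent was fitted by 4-parameter logistic (0–100% constrained) for EC50/CC50.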
For the compound `COc1cc2c(cc1OCc1ccccc1)CCNC2/C=C/c1ccc(OC)c(C)c1C` (stereo not drawn) [EL, 6-Benzyloxy-7-methoxy-1-[(E)-2-(4-methoxy-2,3-dimethyl-phenyl)vinyl]-1,2,3,4-tetrahydroisoquinoline], the SI came to 21.7.

`COc1ccc(/C=C/C2NCCc3cc(OCc4ccccc4)c(OC)cc32)cc1CN1CCCCC1` (stereo not drawn) [EM, 6-Benzyloxy-7-methoxy-1-[(E)-2-[4-methoxy-3-(1-piperidylmethyl)phenyl]vinyl]-1,2,3,4-tetrahydroisoquinoline]: the SI turned out to be 5.6.

`COc1ccc(/C=C/C2NCCc3cc(OCc4ccccc4)c(OC)cc32)cc1Cn1ccnc1C` (stereo not drawn) [EN, 6-Benzyloxy-7-methoxy-1-[(E)-2-[4-methoxy-3-[(2-methylimidazol-1-yl)methyl]phenyl]vinyl]-1,2,3,4-tetrahydroisoquinolin]: the SI worked out at 21.3.

For the compound `COc1ccc(/C=C/C2NCCc3cc(OCc4ccccc4)c(OC)cc32)cc1COCC(F)(F)F` (stereo not drawn) [EO, 6-Benzyloxy-7-methoxy-1-[(E)-2-[4-methoxy-3-(2,2,2-trifluoroethoxymethyl)phenyl]vinyl]-1,2,3,4-tetrahydroisoquinoline], the SI turned out to be 3.8.

With `CCOCc1cc(/C=C/C2NCCc3cc(OCc4ccccc4)c(OC)cc32)ccc1OC` (stereo not drawn) [EP, (E)-6-(benzyloxy)-1-(3-(ethoxymethyl)-4-methoxystyryl)-7-methoxy-1,2,3,4-tetrahydroisoquinoline], the SI was determined as 4.7.

Regarding `COc1cc2c(cc1OCc1ccccc1)CCNC2/C=C/c1ccc(C(=O)O)cc1` (stereo not drawn) [EQ, 4-[(E)-2-(6-benzyloxy-7-methoxy-1,2,3,4-tetrahydroisoquinolin-1-yl)vinyl]benzoic acid], the SI came out at 1.4.

With `COc1cc2c(cc1OCc1ccccc1)CCNC2/C=C/c1cccc(C(=O)O)c1` (stereo not drawn) [ER, 3-[(E)-2-(6-benzyloxy-7-methoxy-1,2,3,4-tetrahydroisoquinolin-1-yl)vinyl]benzoic acid], the SI is on record as 1.

On to `COc1cc2c(cc1OCc1ccccc1)CCNC2/C=C/c1ccccc1C(=O)O` (stereo not drawn) [ES, 2-[(E)-2-(6-benzyloxy-7-methoxy-1,2,3,4-tetrahydroisoquinolin-1-yl)vinyl]benzoic acid], for which the SI is recorded as 1.2.

For `CCOC(=O)c1ccccc1/C=C/C1NCCc2cc(OCc3ccccc3)c(OC)cc21` (stereo not drawn) [ET, Ethyl 2-[(E)-2-(6-benzyloxy-7-methoxy-1,2,3,4-tetrahydroisoquinolin-1-yl)vinyl]benzoate], the SI was 4.

With `COc1ccc(CCC2NCCc3cc(OC)c(OC)cc32)cc1OC` (stereo not drawn) [Example A, 1-[2-(3,4-Dimethoxyphenyl)ethyl]-6,7-dimethoxy-1,2,3,4-tetrahydroisoquinoline], the SI amounted to 1.

As for `CCc1cc(OC)c(OCc2ccccc2)cc1/C=C/C1NCCc2cc(OCc3ccccc3)c(OC)cc21` (stereo not drawn) [Example AA, 6-benzyloxy-1-[(E)-2-(5-benzyloxy-2-ethyl-4-methoxy-phenyl)vinyl]-7-methoxy-1,2,3,4-tetrahydroisoquinoline], the SI is 26.3.

With `COc1ccc(/C=C/C2NCCc3cc(OCc4ccccc4)c(OC)cc32)cc1OCc1ccccc1` (stereo not drawn) [Example AB, 6-benzyloxy-1-[(E)-2-(3-benzyloxy-4-methoxy-phenyl)vinyl]-7-methoxy-1,2,3,4-tetrahydroisoquinoline], the SI was 27.1.

As for `COc1cc(Cl)c(/C=C/C2NCCc3cc(OCc4ccccc4)c(OC)cc32)cc1OCc1ccccc1` (stereo not drawn) [Example AC, 6-benzyloxy-1-[(E)-2-(5-benzyloxy-2-chloro-4-methoxy-phenyl)vinyl]-7-methoxy-1,2,3,4-tetrahydroisoquinoline], the SI stood at 21.8.

Consider `COc1cc2c(cc1OCc1ccccc1)CCNC2/C=C/c1cc(OCc2ccccc2)ccc1C` (stereo not drawn) [Example AD, 6-benzyloxy-1-[(E)-2-(5-benzyloxy-2-methyl-phenyl)vinyl]-7-methoxy-1,2,3,4-tetrahydroisoquinoline], for which the SI turned out to be 38.1.

Regarding `COc1cc(C)c(/C=C/C2=NCCc3cc(OCc4ccccc4)c(OC)cc32)cc1OCc1ccccc1` [Example AE, 6-benzyloxy-1-[(E)-2-(5-benzyloxy-4-methoxy-2-methyl-phenyl)vinyl]-7-methoxy-3,4-dihydroisoquinoline], the SI is 76.5.

Turning to `COc1ccc(/C=C/C2NCCc3cc(OCc4ccccc4)c(OC)cc32)c(C)c1` (stereo not drawn) [Example AG, 6-benzyloxy-7-methoxy-1-[(E)-2-(4-methoxy-2-methyl-phenyl)vinyl]-1,2,3,4-tetrahydroisoquinoline], the SI amounted to 127.4.

For the compound `COc1cc(C)c(/C=C/C2NCCc3cc(OCc4ccccc4)c(OC)cc32)cc1OC` (stereo not drawn) [Example AH, 6-benzyloxy-1-[(E)-2-(4,5-dimethoxy-2-methyl-phenyl)vinyl]-7-methoxy-1,2,3,4-tetrahydroisoquinoline], the SI is reported as 180.8.

For `COCCCCOc1cc(OC)ccc1/C=C/C1NCCc2cc(OCc3ccccc3)c(OC)cc21` (stereo not drawn) [Example AI, (E)-6-(benzyloxy)-7-methoxy-1-(4-methoxy-2-(4-methoxybutoxy)styryl)-1,2,3,4-tetrahydroisoquinoline], the SI turned out to be 3.9.

Take `COc1cc2c(cc1OCc1ccccc1)CCNC2/C=C/c1ccc(OC(F)(F)F)cc1C` (stereo not drawn) [Example AJ, (E)-6-(benzyloxy)-7-methoxy-1-(2-methyl-4-(trifluoromethoxy)styryl)-1,2,3,4-tetrahydroisoquinoline]: the SI came out at 1.83.

Consider `COc1cc2c(cc1OCc1ccccc1)CCNC2/C=C/c1ccnn1C` (stereo not drawn) [Example AK, 6-benzyloxy-7-methoxy-1-[(E)-2-(2-methylpyrazol-3-yl)vinyl]-1,2,3,4-tetrahydroisoquinoline], for which the SI came out at 1.1.

Take `CCn1cc(/C=C/C2NCCc3cc(OCc4ccccc4)c(OC)cc32)cn1` (stereo not drawn) [Example AL, 6-Benzyloxy-1-[(E)-2-(1-ethylpyrazol-4-yl)vinyl]-7-methoxy-1,2,3,4-tetrahydroisoquinoline]: the SI is 8.2.

As for `COc1cc2c(cc1OCc1ccccc1)CCNC2/C=C/c1cc(OC)c(OC)c(OC)c1` (stereo not drawn) [Example AM, 6-Benzyloxy-7-methoxy-1-[(E)-2-(3,4,5-trimethoxyphenyl)vinyl]-1,2,3,4-tetrahydroisoquinoline], the SI came out at 27.3.

For the compound `COc1cc2c(cc1OCc1ccccc1)CCNC2/C=C/c1ccc(OC)c2occc12` (stereo not drawn) [Example AN, 6-Benzyloxy-7-methoxy-1-[(E)-2-(7-methoxybenzofuran-4-yl)vinyl]-1,2,3,4-tetrahydroisoquinoline], the SI is 26.8.

For `COc1cc2c(cc1OCc1ccccc1)CCNC2/C=C/c1ccc(OC)c2ccoc12` (stereo not drawn) [Example AO, 6-Benzyloxy-7-methoxy-1-[(E)-2-(4-methoxybenzofuran-7-yl)vinyl]-1,2,3,4-tetrahydroisoquinoline], the SI is given as 8.8.

For the compound `COc1ccc(/C=C/C2c3cc(OC)c(OCc4ccccc4)cc3CCN2C(=O)c2cnccn2)cc1OCc1ccccc1` (stereo not drawn) [Example B, [6-Benzyloxy-1-[(E)-2-(3-benzyloxy-4-methoxy-phenyl)vinyl]-7-methoxy-3,4-dihydro-1H-isoquinolin-2-yl]-pyrazin-2-yl-methanone], the SI turned out to be 0.5.

As for `COc1cc2c(cc1OC)C(/C=C/c1cc(OCc3ccccc3)c(OC)cc1C)NCC2` (stereo not drawn) [Example C, 1-[(E)-2-(5-Benzyloxy-4-methoxy-2-methyl-phenyl)vinyl]-6,7-dimethoxy-1,2,3,4-tetrahydroisoquinoline], the SI is listed as 1.1.

On to `CCCCN1CCc2cc(OC)c(OCc3ccccc3)cc2C1/C=C/c1ccc(OCc2ccccc2)c(OC)c1` (stereo not drawn) [Example D, 7-Benzyloxy-1-[(E)-2-(4-benzyloxy-3-methoxy-phenyl)vinyl]-2-butyl-6-methoxy-3,4-dihydro-1H-isoquinoline], for which the SI is on record as above 1.1.

Turning to `COc1cc(C)c(/C=C/C2c3cc(OC)c(OCc4ccccc4)cc3CCN2C)cc1OCc1ccccc1` (stereo not drawn) [Example E, 6-Benzyloxy-1-[(E)-2-(5-benzyloxy-4-methoxy-2-methyl-phenyl)vinyl]-7-methoxy-2-methyl-3,4-dihydro-1H-isoquinoline], the SI is 0.8.

Take `COc1cc(C)c(/C=C/C2c3cc(OC)c(OCc4ccccc4)cc3CCN2C(=O)c2cccc(N)n2)cc1OCc1ccccc1` (stereo not drawn) [Example F, (6-Amino-2-pyridyl)-[6-benzyloxy-1-[(E)-2-(5-benzyloxy-4-methoxy-2-methyl-phenyl)vinyl]-7-methoxy-3,4-dihydro-1H-isoquinolin-2-yl]methanone]: the SI was determined as 19.8.

For the compound `CCCCN1CCc2cc(OCc3ccccc3)c(OC)cc2C1/C=C/c1ccc(OC)c(OCc2ccccc2)c1` (stereo not drawn) [Example G, 6-Benzyloxy-1-[(E)-2-(3-benzyloxy-4-methoxy-phenyl)vinyl]-2-butyl-7-methoxy-3,4-dihydro-1H-isoquinoline], the SI worked out at 1.

Take `COc1cc(C)c(/C=C/C2c3cc(OC)c(OCc4ccccc4)cc3CCN2C(=O)c2cnccn2)cc1OCc1ccccc1` (stereo not drawn) [Example H, [6-Benzyloxy-1-[(E)-2-(5-benzyloxy-4-methoxy-2-methyl-phenyl)vinyl]-7-methoxy-3,4-dihydro-1H-isoquinolin-2-yl]-pyrazin-2-yl-methanone]: the SI is recorded as 22.3.

Regarding `COC(=O)N1CCc2cc(OCc3ccccc3)c(OC)cc2C1/C=C/c1cc(OC)c(OC)cc1C` (stereo not drawn) [Example I, Methyl 6-benzyloxy-1-[(E)-2-(4,5-dimethoxy-2-methyl-phenyl)vinyl]-7-methoxy-3,4-dihydro-1H-isoquinoline-2-carboxylate], the SI was 22.3.

Take `COc1cc(C(C)(C)C)c(/C=C/C2NCCc3cc(OCc4ccccc4)c(OC)cc32)cc1OCc1ccccc1` (stereo not drawn) [Example J, 6-Benzyloxy-1-[(E)-2-(5-benzyloxy-2-tert-butyl-4-methoxy-phenyl)vinyl]-7-methoxy-1,2,3,4-tetrahydroisoquinoline]: the SI is given as 1.27.
